Data as given in PubChem BioAssay AID504761 (Drosophila RNAi Screening Center, 2011)
In all, the deposit lists about 22,000 reagents; shown is a random part of those with a known target gene and a result. Over the whole deposit, 116 (0.52%) were called active. 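Calls depend on retest data that are not deposited; infection was ranked per plate without normalising between plates; the unit of the infection score is not given.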 Raw values are not corrected between plates. Names joined by + are all predicted targets of the reagent. The record does not give: the amount of reagent, the time to read-out.

Aim: 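Fly genes whose silencing reduces dengue virus type 2 infection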 (primary screen)
Cells: D.Mel-2 cells from Drosophila
Reagents: long dsRNA against Drosophila genes
Conditions: infection with dengue virus type 2; dose and infection time not stated
Detection: 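Per well on two replicate plates, imaging gave the percent of cells positive for viral envelope protein, ranked by infection, and a nuclear count of cells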
Reading the numbers: infection score: higher = more virus-infected cells; cell count: higher = more cells in the well
Rule for the call: 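Low infection ranks in the two replicates (chance level up to 0.065) followed by a retest with a 1.5-fold or larger significant decrease, p below 0.05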
Calls: active = confirmed: knock-down lowers infection; inactive = not picked or not confirmed

predicted target	amplicon	infection score, replicate 1	infection score, replicate 2	cell count, replicate 1	cell count, replicate 2	Outcome
Sprn	DRSC10132	2.05	11	6388	6526	inactive
CG3713	DRSC18648	12.5	7.93	3881	2508	inactive
CG32269 + CG32270	DRSC08195	3.31	0.64	5926	6081	inactive
CG14795	DRSC18513	7.92	15.2	7113	4919	inactive
CG14795	DRSC26338	12.1	11.2	4989	5859	inactive
CG33262	DRSC22893	1.69	4.82	5908	5726	inactive
CG31213	DRSC14312	12.6	1.65	3799	5893	inactive
CG31213	DRSC15647	7.33	3.6	6375	5638	inactive
CG5439	DRSC02861	12.3	13.7	6363	6221	inactive
CG5439	DRSC25932	1	3.09	6075	6431	inactive
Pde9	DRSC19746	9.66	5.93	5940	5191	inactive
Pde9	DRSC19874	6.29	27.6	5516	5048	inactive
Pde9	DRSC19875		16.7	347	5768	inactive
Pde9	DRSC19876	11.9	13.1	3870	4287	inactive
Pde9	DRSC25304	1.24	2.07	6592	6182	inactive
CG4612	DRSC04478	17.9	11.9	6128	6520	inactive

The list goes on, starting with the last 2 of the part before.
predicted target	amplicon	infection score, replicate 1	infection score, replicate 2	cell count, replicate 1	cell count, replicate 2	Outcome
Pde9	DRSC25304	1.24	2.07	6592	6182	inactive
CG4612	DRSC04478	17.9	11.9	6128	6520	inactive
MED23 + CG3700	DRSC04406	7.92	5.63	6695	7032	inactive
MED23 + CG3700	DRSC04407	9.66	12	6555	6545	inactive
MED23 + CG3700	DRSC24669	12.4	1.52	6532	6726	inactive
MED23 + CG3700	DRSC25453	4.44	2.87	6798	6588	inactive
CG13344	DRSC06378	27.6	23	4055	5906	inactive
CG3285	DRSC00589	6.47	2.76	6487	6704	inactive
form3	DRSC10195	3.04	21.3	6819	4794	inactive
form3	DRSC10297	8.85	30	4655	4681	inactive
form3	DRSC11024	3.99	0.69	5911	6088	inactive
CG12971	DRSC11681	14.9	4.87	5869	5673	inactive
CG12971	DRSC23893	6.65	4.96	6196	6248	inactive
CG4630	DRSC06874	5	3.08	6642	6552	inactive
CG4630	DRSC26971	4.8	10.4	6516	6830	inactive
CG13078	DRSC02182	4.22	3.53	6584	1078	inactive
CG6296	DRSC16013	2.3	13.5	6726	6936	inactive
blanks	DRSC09757	6.61	7.77	5828	5338	inactive
Vap33	DRSC18384	0.43	12.2	230	6381	inactive
Obp83a	DRSC12362	3.91	4.89	6668	6607	inactive
CG6083	DRSC10580	1.86	6.25	6091	6195	inactive
CG6083	DRSC24586	8.2	7.08	5501	5720	inactive
shg	DRSC04714	13.6	9.29	6625	6897	inactive
shg	DRSC27751	34	3.62	5824	6606	inactive
shd	DRSC11129	0.68	1.12	6038	6520	inactive
